These results are taken from patent US12509503B2, “Pan-neuraminidase inhibiting antibodies” (Washington University, priority 2019, dated 2025).

This assay relates to influenza B NA. The class given is binding, influenza B virus.

B1: 1G04: human anti-NA monoclonal antibody expressed as IgG1; heavy chain variable region SEQ ID NO: 40, light chain variable region SEQ ID NO: 41 (antibody, listed as Homo sapiens, V domains shown)
VH: EVQLVESGGRVVRPGGSLRLSCAASGFTFDDYGMSWVRQAPGKGLEFVSGLNWNGDITAFTDSVKGRFTISRDNAKSSLYLQMNSLRADDTAFYYCARVRTWGEYTTREEPIHSWYFDLWGRGTLVTVSS
VL: DIQLTQSPSFLSASVGDRVTITCRASQDISSFLAWYQQKPGNAPKVLIYAASLLQSGVPSRFSGSGSGTDFTLTISSLQPEDFATYYCQQLNSYPLFTFGPGTKVDIK
modifications: IgG1 constant regions
For the molecule B1, the “binding to influenza B NA in ELISA” value is reported as “weak binding”.

B2: 1G01: human anti-NA monoclonal antibody expressed as IgG1; heavy chain variable region SEQ ID NO: 44, light chain variable region SEQ ID NO: 45 (antibody, listed as Homo sapiens, V domains shown)
VH: EVQLVESGGRALRPGGSLRLSCAASGFKFDDYAMSWVRQVPGKGLEFVSGLNWNGDITAYTDSVKGRFTVSRDNAKNSLYLHINSPKPEDTALYYCARTSSWGDYTRGPEPKITWYFDLWGRGTLVTVSS
VL: DIQLTQSPSFLSASVGDRITITCRASQGIDGYLAWYQQRPGKAPNLLIYAASLLQSGVPSRFSGSGYGTEFTLTISSLQPEDFATYYCQHLDSYPLFTFGPGTKVDIK
modifications: IgG1 constant regions
In the case of B2, the “binding to influenza B NA in ELISA” value is listed as “binding activity”.
